Measured values from several laboratories, pooled; numbers as filed in NIAID ChemDB.

All rows: tests in culture; species: Candida albicans; endpoint: MIC

Rows are shuffled and stem from different studies.

compound | strain or isolate | value
CCOC(=O)Cc1csc(NC(=O)CSc2nnc(C(C)Oc3ccc(Cl)cc3)n2-c2ccccc2)n1 | Clinical isolates | 8 µg/mL
Cc1ccc(C(Cn2ccnc2)OCc2cccc3ccccc23)cc1 | CA2 | 128 µg/mL
CCCc1ncc(C(N)=S)nc1Sc1ccccc1 | ATCC 44859 | >31.25 µg/mL
CC(C)(C)c1ccc(COC(Cn2ccnc2)c2ccc(Cl)cc2)cc1 | CA12 | >128 µg/mL
C=CCSCC[C@H](N)C(=O)N[C@H]1[C@@H](O)[C@H](n2cnc3c(N)ncnc32)O[C@@H]1C(=O)O | FP633 | 12.5 µg/mL
CCSc1nc(C(N)=O)cnc1C(C)(C)C | ATCC 44859 | >31.25 µg/mL
Clc1ccc(C(Cn2ccnc2)OCc2cccc3ccccc23)c(Cl)c1 | CA12 | 2 µg/mL
CCCCSc1nc(C(N)=S)cnc1CCC | ATCC 44859 | >31.25 µg/mL
C[C@H](n1cnc2cc3ccccc3cc2c1=O)[C@](O)(Cn1cncn1)c1ccc(F)cc1F | 76 strains | 0.31 µg/mL
CCCCCCCC(=O)N[C@H]1CC2C(=O)NCCC[C@H](NC(=O)c3ccc(-c4ccc(-c5ccc(OCCCCC)cc5)cc4)cc3)C(=O)NC(C(C)O)C(=O)N3C[C@H](O)CC3C(=O)NC(CCc3ccc(O)cc3)C(=O)NC(C(C)O)C(=O)N2C1 | ATCC 10231 | 50 µg/mL
CNc1ccc(C(=O)CC(O)CCC(C)C2OC(=O)CC(O)CC(=O)CC(O)CC(O)CC(O)CC(O)CC3(O)CC(O)C(C(=O)NCCN(C)C)C(CC(O[C@@H]4O[C@H](C)[C@@H](O)[C@H](NC(=O)CN(C)C)[C@@H]4O)/C=C/C=C/C=C/C=C\C=C/C=C/C=C/C2C)O3)cc1 | 200 | 0.03 µg/mL
CC(C)Cc1ncc(C(N)=S)nc1Sc1ccccc1 | ATCC 44859 | >31.25 µg/mL
Cc1ccc(C(Cn2ccnc2)OCc2ccc(-c3ccccc3)cc2)cc1 | 3M | 64 µg/mL
CCCCCOc1ccc(-c2ccc(-c3ccc(C(=O)N[C@H]4CCCNC(=O)[C@H]5CCN5C(=O)C(C(C)O)NC(=O)C(CCc5ccc(O)cc5)NC(=O)C5C[C@@H](O)CN5C(=O)C(C(C)O)NC4=O)cc3)cc2)cc1 | ATCC 10231 | >100 µg/mL
COc1ccc2c(Cc3ccc(C(C)(C)C)cc3)c3[n+](cc2c1OC)CCc1cc2c(cc1-3)OCO2 | Isolate YH-003 | 3.13 µg/mL
Nc1ncnc2c1ncn2[C@@H]1O[C@H](C(=O)O)[C@@H](NC(=O)[C@H](N)CSC/C(Cl)=C/Cl)[C@H]1O | FP633 | 50 µg/mL
Cc1ccc(OC(C)c2nnc(SCC(=O)Nc3nccs3)n2C2CCCCC2)cc1 | NRRL Y-27077 | 16 µg/mL
C[C@H](N)C(=O)N[C@H]1[C@@H](O)[C@H](n2cnc3c(N)ncnc32)O[C@@H]1C(=O)O | FP633 | 100 µg/mL
Cc1cccc2c(=O)n([C@H](C)[C@](O)(Cn3cncn3)c3ccc(F)cc3F)cnc12 | 76 strains | 20 µg/mL
CC(Oc1ccccc1)c1n[nH]c(=S)n1C1CCCCC1 | Clinical isolates | >16 µg/mL
CCCCCCCCOc1ccc(N2CCN(c3ccc(C(=O)N[C@H]4CCCNC(=O)C5C[C@H](N)CN5C(=O)C(C(C)O)NC(=O)C(c5ccc(CO)cc5)NC(=O)C5CCCN5C(=O)C(C(C)O)NC4=O)cc3)CC2)cc1 | ATCC CCH442 | 25 µg/mL
CCOC(=O)Cc1csc(NC(=O)CSc2nnc(C(C)Oc3ccc(C)cc3)n2-c2ccccc2)n1 | NRRL Y-27077 | 16 µg/mL
Cc1c(O)cccc1C(=O)N[C@@H](CSc1ccccc1)[C@H](O)CN1C[C@H]2CCCC[C@H]2C[C@H]1C(=O)NC(C)(C)C | I175A | >64 µg/mL
C[C@@H](SC1COC(/C=C/C=C/c2ccc(C#N)cc2F)OC1)[C@](O)(Cn1cncn1)c1ccc(F)cc1F | CAL-0002 | 8 µg/mL
CC(Oc1ccc(Cl)cc1)c1n[nH]c(=S)n1-c1ccccc1 | NRRL Y-27077 | 2 µg/mL
Cc1ccc(C(Cn2ccnc2)OC/C=C/c2ccccc2)cc1 | CA7 | 128 µg/mL
CNc1ccc(C(=O)CC(O)CCC(C)C2OC(=O)CC(O)CC(=O)CC(O)CC(O)CC(O)CC(O)CC3(O)CC(O)C(C(=O)N4CCN(CCO)CC4)C(CC(O[C@@H]4O[C@H](C)[C@@H](O)[C@H](NC(=O)CN(C)C)[C@@H]4O)/C=C/C=C/C=C/C=C\C=C/C=C/C=C/C2C)O3)cc1 | 73 | 0.03 µg/mL
CCCSc1nc(C(N)=S)cnc1C(C)(C)C | ATCC 44859 | >31.25 µg/mL
CC(O)C1NC(=O)C(CCc2ccc(O)cc2)NC(=O)C2C[C@@H](O)CN2C(=O)C(C(C)O)NC(=O)[C@@H](NC(=O)c2ccccc2)CCCNC(=O)C2C[C@H](N)CN2C1=O | ATCC 62376 | >100 µg/mL
CCCCCCCCOc1ccc(-c2ccc(C(=O)NC3CC(NCCN)CNC(=O)[C@@H]4[C@@H](O)[C@@H](C)CN4C(=O)[C@@H](CO)NC(=O)[C@H]([C@H](O)Cc4ccccc4)NC(=O)[C@@H]4C[C@@H](O)CN4C(=O)[C@H]([C@@H](C)O)NC3=O)cc2)cc1 | 98-17 | 0.5 µg/mL
C=CCSCC(N)C(=O)N[C@H]1[C@@H](O)[C@H](n2cnc3c(N)ncnc32)O[C@@H]1C(=O)O | FP633 | 0.2 µg/mL
CNc1ccc(C(=O)CC(O)CCC(C)C2OC(=O)CC(O)CC(=O)CC(O)CC(O)CC(O)CC(O)CC3(O)CC(O)C(C(=O)N4CCN(CCO)CC4)C(CC(O[C@@H]4O[C@H](C)[C@@H](O)[C@H](NC(=O)CN5CCN(CCO)CC5)[C@@H]4O)/C=C/C=C/C=C/C=C\C=C/C=C/C=C/C2C)O3)cc1 | 200 | 0.06 µg/mL
Cc1csc(NC(=O)CSc2nnc(C(C)Oc3ccccc3)n2-c2ccccc2)n1 | Clinical isolates | >16 µg/mL
CC(O)C1NC(=O)C(CCc2ccc(O)cc2)NC(=O)C2C[C@@H](O)CN2C(=O)C(C(C)O)NC(=O)[C@@H](N)CCCNC(=O)C2C[C@H](N)CN2C1=O | ATCC CCH442 | >100 µg/mL
C[C@@H](n1cnc2cc(N3CCOCC3)ccc2c1=O)[C@](O)(Cn1cncn1)c1ccc(F)cc1F | 60 strains | 1.25 µg/mL
CSc1nc(C(N)=S)cnc1CC(C)C | ATCC 44859 | >31.25 µg/mL
CCOC(=O)c1csc(NC(=O)CSc2nnc(C(C)Oc3ccc(Cl)cc3)n2-c2ccccc2)n1 | Clinical isolates | >16 µg/mL
CCCCCOc1ccc(-c2ccc(-c3ccc(C(=O)N[C@H]4CCCNC(=O)[C@@H]5C[C@H](NC(C)=O)CN5C(=O)[C@H]([C@@H](C)O)NC(=O)[C@H](CCc5ccc(O)cc5)NC(=O)[C@@H]5C[C@@H](O)CN5C(=O)[C@H]([C@@H](C)O)NC4=O)cc3)cc2)cc1 | ATCC 10231 | 0.2 µg/mL
CSc1nc(C(N)=S)cnc1C(C)(C)C | ATCC 44859 | >31.25 µg/mL
C[C@@H](c1ncncc1F)[C@](O)(Cn1cncn1)c1ccc(F)cc1F | 76 strains | ≤0.03 µg/mL
CCCCCOc1ccc(-c2ccc(-c3ccc(C(=O)N[C@H]4CCCNC(=O)C5C[C@H](NC(=O)NCCN(C)C)CN5C(=O)C(C(C)O)NC(=O)C(CCc5ccc(O)cc5)NC(=O)C5C[C@@H](O)CN5C(=O)C(C(C)O)NC4=O)cc3)cc2)cc1 | ATCC 62376 | 0.78 µg/mL
Cc1ccc(C(C)C)c(O)c1 | ATCC 10231 | 0.16 µg/mL
CCCCCOc1ccc(-c2ccc(-c3ccc(C(=O)N[C@H]4CCCNC(=O)C5C[C@H](NC(=O)NCCC(C)C)CN5C(=O)C(C(C)O)NC(=O)C(CCc5ccc(O)cc5)NC(=O)C5C[C@@H](O)CN5C(=O)C(C(C)O)NC4=O)cc3)cc2)cc1 | ATCC CCH442 | 12.5 µg/mL
C[C@@H](n1cnc2ncccc2c1=O)[C@](O)(Cn1cncn1)c1ccc(F)cc1F | 60 strains | 10 µg/mL
CNc1ccc(C(=O)CC(O)CCC(C)C2OC(=O)CC(O)CC(=O)CC(O)CC(O)CC(O)CC(O)CC3(O)CC(O)C(C(=O)N4CCN(C)CC4)C(CC(O[C@@H]4O[C@H](C)[C@@H](O)[C@H](NC(=O)CN(C)C)[C@@H]4O)/C=C/C=C/C=C/C=C\C=C/C=C/C=C/C2C)O3)cc1 | 73 | 0.0075 µg/mL
Nc1ncnc2c1ncn2[C@@H]1O[C@H](C(=O)O)[C@@H](NC(=O)[C@H](N)CSC2CCCCO2)[C@H]1O | FP633 | >100 µg/mL
CC(Oc1ccc(Cl)cc1)c1nnc(SCC(=O)Nc2nccs2)n1-c1ccccc1 | NRRL Y-27077 | 8 µg/mL

A second listing of 6 rows from above:

compound | strain or isolate | value
CCOC(=O)c1csc(NC(=O)CSc2nnc(C(C)Oc3ccc(Cl)cc3)n2-c2ccccc2)n1 | Clinical isolates | >16 µg/mL
CCCCCOc1ccc(-c2ccc(-c3ccc(C(=O)N[C@H]4CCCNC(=O)C5C[C@H](NC(=O)NCCN(C)C)CN5C(=O)C(C(C)O)NC(=O)C(CCc5ccc(O)cc5)NC(=O)C5C[C@@H](O)CN5C(=O)C(C(C)O)NC4=O)cc3)cc2)cc1 | ATCC 62376 | 0.78 µg/mL
CNc1ccc(C(=O)CC(O)CCC(C)C2OC(=O)CC(O)CC(=O)CC(O)CC(O)CC(O)CC(O)CC3(O)CC(O)C(C(=O)NCCN(C)C)C(CC(O[C@@H]4O[C@H](C)[C@@H](O)[C@H](NC(=O)CN(C)C)[C@@H]4O)/C=C/C=C/C=C/C=C\C=C/C=C/C=C/C2C)O3)cc1 | 200 | 0.03 µg/mL
C[C@H](n1cnc2cc3ccccc3cc2c1=O)[C@](O)(Cn1cncn1)c1ccc(F)cc1F | 76 strains | 0.31 µg/mL
CSc1nc(C(N)=S)cnc1C(C)(C)C | ATCC 44859 | >31.25 µg/mL
C[C@@H](n1cnc2cc(N3CCOCC3)ccc2c1=O)[C@](O)(Cn1cncn1)c1ccc(F)cc1F | 60 strains | 1.25 µg/mL